# Laboratory results taken from patent US9839708B2, “Method for treating used absorbent article” (Unicharm Corporation, priority 2012, dated 2017).
# Experiment: Evaluation of washing function (whiteness ΔE of washed artificially soiled cloth)
# Settings: Soiled cloth: ΔE = 50.0; Original cloth: 9.4; washed 10 minutes twice, colorimeter
row,SMILES,Washing Function ΔE
1,"OCl [compound 3, sodium hypochlorite]",24.9
2,"[Na+].[O-]Cl [compound 4, sodium hypochlorite]",24.6
3,"OCl [compound 5, sodium hypochlorite]",19.7
